System: C[C@@H]1NC(=O)N[C@@H]1CCCCCC(=O)O
Assay: purified protein
Conditions: pH 8.0; 25.0 °C

In the case of “BioB.tb-BsaP (Mycobacterium tuberculosis H37Rv)”, the Km is reported as 7 µM.

Reference: article PMC11099021, “Mycobacterial biotin synthases require an auxiliary protein to convert dethiobiotin into biotin” (Nature Communications, 2024)
